Test results as given in PubChem BioAssay AID1626 (SRMLSC, 2009).

test system: M. tuberculosis H37Rv growth inhibition; assay: M. tuberculosis H37Rv growth inhibitors, H37Rv strain (AID 1626); settings: measured here: Vero cell cytotoxicity

For `O=C(Nc1ccc(Cl)cn1)c1ccc([N+](=O)[O-])o1`, which CC50 is on record?
The CC50 was 8.36 µM.

For `C1CCC(C(CC2CCCCN2)C2CCCCC2)CC1` (stereo not given), which CC50 is on record?
Its CC50 is 15 µM.

How did the CC50 turn out when `Cc1cccc(CN2CCN(C(c3ccccc3)c3ccc(Cl)cc3)CC2)c1` (stereo not given) was run?
The CC50 was greater than 40 µM.

How did the CC50 turn out when `Cc1cccc(NC(=O)c2ccc([N+](=O)[O-])o2)c1` was run?
The CC50 was 3.71 µM.

`O=c1[nH]c2ccccc2n1C1CCN(CCCC(c2ccc(F)cc2)c2ccc(F)cc2)CC1` was tested. Which CC50 did it give?
The CC50 was 14.2 µM.
